Experimental data from paper PMC9278102, “A So-Far Overlooked Secondary Conformation State in the Binding Mode of SARS-CoV-2 Spike Protein to Human ACE2 and Its Conversion Rate Are Crucial for Estimating Infectivity Efficacy of the Underlying Virus Variant” (2022).

Experiments:
[1] = target: SARS-CoV (2002) S1-S2-His trimer (SARS-CoV (2002)); experiment: SEC
[2] = target: SARS-CoV-2 B.1.1.7 S1-S2 -His-T4 trimer (SARS-CoV-2 B.1.1.7 (α-variant)); experiment: SEC

Substance | stoichiometry N [1] | stoichiometry N [2]
SARS-CoV (2002) S1-S2-His trimer (domain or fragment) | 3 | 
SARS-CoV-2 B.1.1.7 S1-S2 -His-T4 trimer (domain or fragment) |  | 3
